Laboratory results from PubChem BioAssay AID1619 (SRMLSC, 2009).
The list shows a part of the results, in another mix than the full data. Results with a measured potency or affinity are listed apart. Activity calls are given as the source filed them.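 How the source made its calls: active means compound inhibiting the enzyme by more than half at any dose during confirmatory dose-response retesting; inconclusive means strong single-dose inhibitors picked by rank but not retested; inactive means the rest.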

Chains of the proteins cited; added tags and fusions are not shown.
UniProt Q8IL11, whole entry: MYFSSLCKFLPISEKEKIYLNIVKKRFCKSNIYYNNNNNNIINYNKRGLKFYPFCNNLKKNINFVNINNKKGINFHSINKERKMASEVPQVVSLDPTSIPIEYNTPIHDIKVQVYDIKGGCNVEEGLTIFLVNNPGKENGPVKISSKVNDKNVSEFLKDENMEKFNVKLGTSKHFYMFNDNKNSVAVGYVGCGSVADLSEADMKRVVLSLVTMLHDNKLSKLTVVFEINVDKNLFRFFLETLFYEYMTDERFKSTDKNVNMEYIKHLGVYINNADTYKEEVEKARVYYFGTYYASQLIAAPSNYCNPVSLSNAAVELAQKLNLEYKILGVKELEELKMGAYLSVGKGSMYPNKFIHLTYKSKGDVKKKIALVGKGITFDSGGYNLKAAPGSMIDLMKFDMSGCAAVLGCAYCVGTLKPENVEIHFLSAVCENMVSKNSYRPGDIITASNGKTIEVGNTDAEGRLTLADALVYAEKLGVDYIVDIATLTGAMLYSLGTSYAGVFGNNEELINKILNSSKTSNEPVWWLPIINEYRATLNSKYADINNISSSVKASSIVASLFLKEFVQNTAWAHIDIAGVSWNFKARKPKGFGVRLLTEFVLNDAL

Biological target: Leucine aminopeptidase (Plasmodium falciparum (isolate 3D7)) (UniProt Q8IL11)
Assay: P. falciparum M17LAP inhibitors, primary screen, biochemical, fluorogenic H-Leu-NHMec substrate, 1536-well (AID 1619);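 further: plate controls were full reaction with DMSO carrier for no effect and no enzyme background for full effect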
Details: recombinant M17LAP, H-Leu-NHMec fluorogenic kinetic assay; at 30 µM; hits give high values

| Structure (SMILES) | inhibition |
| --- | --- |
| COc1ccc(C(=O)NCC2(N3CCCCC3)CCCCC2)c(OC)c1OC | inactive: 1.24% |
| CCOC(=O)N1CCC(Nc2ccc(OC)cc2)CC1 | inactive: -3.28% |
| N#CC1(Nc2ccccc2)CCN(Cc2ccccc2)CC1 | inactive: -3.46% |
| O=C(OC1CN2CCC1CC2)C1c2ccccc2Oc2ccccc21 (centres undefined) | inactive: 6.19% |
| O=C(NCC1(N2CCOCC2)CCCCC1)c1cc2ccccc2o1 | inactive: 4.56% |
| COc1ccc(NC2CCN(CCc3ccccc3)CC2)c(OC)c1 | inactive: 7.9% |
| CCOc1ccc(C)cc1CN(CCCl)CCCl | inactive: -2.36% |
| Cc1ccc(OCC(C)C)c(CN(CCCl)CCCl)c1 | inactive: -6.58% |
| O=C(NCC1(N2CCCCC2)CCCCC1)c1cccc([N+](=O)[O-])c1 | inactive: -2.25% |
| N#CC1(Nc2ccccc2)CCN(CCc2ccccc2)CC1 | inactive: 11.7% |
| COc1ccc(NC2CCN(C(=O)OC(C)(C)C)CC2)cc1 | inactive: 7.81% |
| CN1CCN(CCOC(=O)C(O)(c2ccccc2)c2ccccc2)CC1 | inactive: 8.02% |
| O=C(NCC1(N2CCOCC2)CCCCC1)c1cc(=O)[nH]c2ccccc12 | inactive: 0.43% |
| COc1ccc(CN(CCCl)CCCl)cc1Cl | inactive: 17.7% |
| CN(C)c1cccc(C(=O)NCC2(N3CCCCC3)CCCCC2)c1 | inactive: 3.55% |
| CC(C)c1ccc(NC2CCN(C(=O)OC(C)(C)C)CC2)cc1 | inactive: 3.94% |
| COc1ccc(C(=O)NCC2(N3CCOCC3)CCCCC2)cc1OC | inactive: 9.48% |
| O=C(OC1CN2CCC1CC2)C1c2ccccc2C=Cc2ccccc21 (centres undefined) | inactive: 2.17% |
| N/C(=N\O)c1c(N)no[n+]1[O-] | inactive: 2.93% |
| N#Cc1ccc(C(=O)NCC2(N3CCCCC3)CCCCC2)cc1 | inactive: -7.67% |
| c1ccc(CN2CCC(Nc3ccccc3)CC2)cc1 | inactive: -8.49% |
| Fc1ccccc1NC1CCN(Cc2ccccc2)CC1 | inactive: -0.07% |
| CN(C)c1ccc(C(=O)NCC2(N3CCCCC3)CCCCC2)cc1 | inactive: 19.4% |
| CCN1CCC(Nc2cccc(F)c2)CC1 | inactive: -12.3% |
| CC(C)(C)OC(=O)N1CCC(Nc2ccccc2)CC1 | inactive: 5.97% |
| CCOc1ncccc1C(=O)NCC1(N2CCOCC2)CCCCC1 | inactive: -11.4% |
| CCCOc1ccc(C)cc1CN(CCCl)CCCl | inactive: -2.9% |
| CCC(CO)(C(=O)OC1CN2CCC1CC2)c1ccccc1 (centres undefined) | inactive: 3.51% |
| COc1cc(OC)cc(C(=O)NCC2(N3CCOCC3)CCCCC2)c1 | inactive: -1.48% |
